Reference: paper PMC10883919

Columns and labels:
[1] = biological target: P~TcrX (phosphorylated TcrX) (Mycobacterium tuberculosis H37Rv) (UniProt O69730); experiment: EMSA; settings: recombinant protein; residues 1-234; probe letters rebuilt from the primers and the genome
[2] = biological target: T1, TcrX (Mycobacterium tuberculosis H37Rv) (UniProt O69730); experiment: EMSA; settings: unphosphorylated, weaker than P~TcrX; recombinant protein; residues 1-234; probe letters rebuilt from the primers and the genome
T1 sequence (looked up): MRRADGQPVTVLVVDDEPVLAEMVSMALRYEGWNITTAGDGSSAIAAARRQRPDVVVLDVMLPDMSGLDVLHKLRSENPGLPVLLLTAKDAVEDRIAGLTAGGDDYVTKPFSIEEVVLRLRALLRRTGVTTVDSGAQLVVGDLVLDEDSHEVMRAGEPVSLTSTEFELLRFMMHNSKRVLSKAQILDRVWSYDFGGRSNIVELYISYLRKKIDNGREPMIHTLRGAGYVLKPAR

[3] = biological target: P~TcrX (phosphorylated TcrX) (Mycobacterium tuberculosis H37Rv) (UniProt O69730); experiment: competition with a labelled probe; settings: recombinant protein; residues 1-234; probe letters rebuilt from the primers and the genome

Measured: binding result

TACGACACGCTCAACCGAGATGCGGTGCTGCGTCACAGCGTCAAGTATCCGCACACGGCTGAGCAGACGCCATGCGGATCCTATGTGCGCGCTATGAAACCCGATTTG (double strand) [PtcrXY]
binds: all assays above

Construct, isoform or probe ends are uncertain for at least one entry. For part of these data: At least one verdict was read from the data and is not stated in words by the source. For part of these data: Tags and fusion partners may be left off the protein sequences shown.
